Pooled drug test results. Numbers come from NIAID ChemDB, via PubChem.

All rows: whole-cell or culture tests; agent: Candida albicans; read by: agar diffusion; read-out: zone

An empty or dashed field is not shown.

| SMILES | strain | dose | value |
|---|---|---|---|
| CSC1=NC(c2ccccc2)C(C#N)=C(N)N1 | MTCC 227 | 50 µg/mL | 18 mm |
| C/C=C/C1=CC2=CC(=O)[C@](C)(OC(=O)c3c(C)cc(O)cc3OC)C(=O)C2=CO1 | ATCC 64548 | 20 µg/disc | 0 mm |
| S=c1n(CN2CCN(Cc3ccccc3)CC2)nc(C23CC4CC(CC(C4)C2)C3)n1/N=C/c1c(Cl)cccc1Cl | IFO 3007 | 200 µg/disc | <10 mm |
| CSC1=NC(c2ccccc2O)C(C#N)=C(N)N1 | MTCC 227 | 50 µg/mL | 19 mm |
| CC1(C)CC(=O)C2=C(C1)OC1=C(C(=O)CC(C)(C)C1)C2c1cccc(C2C3=C(CC(C)(C)CC3=O)OC3=C2C(=O)CC(C)(C)C3)c1 | ATCC 10231 | 20 µg/disc | 0 mm |
| CS(=O)(=O)c1nc(N)c(C#N)c(-c2cccc([N+](=O)[O-])c2)n1 | MTCC 227 | 100 µg/mL | 19 mm |
| COc1cccc(/C=c2\c(=O)[nH][nH]\c2=C2/C(=O)c3ccccc3N(C)C2=O)c1 | ATCC 10231 | 1 mg/mL | 8 mm |
| O=C1CCCC2=C1C(c1cccc(C3C4=C(CCCC4=O)OC4=C3C(=O)CCC4)c1)C1=C(CCCC1=O)O2 | ATCC 10231 | 140 µg/disc | 7 mm |
| CS(=O)(=O)c1nc(N)c(C#N)c(-c2ccccc2)n1 | MTCC 227 | 100 µg/mL | 19 mm |
| O=C1CC(c2ccccc2)CC2=C1C(c1cccc(C3C4=C(CC(c5ccccc5)CC4=O)OC4=C3C(=O)CC(c3ccccc3)C4)c1)C1=C(CC(c3ccccc3)CC1=O)O2 | ATCC 10231 | 140 µg/disc | 8 mm |
| Cn1c(=O)c(-c2[nH][nH]c(=O)c2/C=N/c2cscn2)c(O)c2ccccc21 | ATCC 10231 | 1 mg/mL | 14 mm |
| CCOC(=O)C1CCN(Cn2nc(C34CC5CC(CC(C5)C3)C4)n(/N=C/c3c(Cl)cccc3Cl)c2=S)CC1 | IFO 3007 | 200 µg/disc | <10 mm |
| CC1(C)CC(=O)C2=C(C1)OC1=C(C(=O)CC(C)(C)C1)C2c1ccc(C2C3=C(CC(C)(C)CC3=O)OC3=C2C(=O)CC(C)(C)C3)cc1 | ATCC 10231 | 140 µg/disc | 9 mm |
| CS(=O)(=O)C1=NC(c2cccc3cc4ccccc4cc23)C(C#N)=C(N)N1 | MTCC 227 | 100 µg/mL | 19 mm |
| CN1C(=O)/C(=c2/[nH][nH]c(=O)/c2=C\c2ccc(Cl)cc2)C(=O)c2ccccc21 | ATCC 10231 | 1 mg/mL | 8 mm |
| CC1/C(=N\O)C(=O)NCCCOc2c(O)cc(c(Br)c2Br)C/C2=N\O[C@@H]3[C@H](Br)[C@@]4(C=C[C@@]3(O)C/C(=N\O)C(=O)NC[C@@H](O)[C@@H](O)[C@H](O)CNC2=O)Oc2cc1cc(Br)c2O4 |  | 10 µg/disc | 6.5 mm |
| Cn1c(=O)c(-c2[nH][nH]c(=O)c2N=Nc2cccc(Br)c2)c(O)c2ccccc21 | ATCC 10231 | 1 mg/mL | 15 mm |
| CCN1CCN(Cn2nc(C34CC5CC(CC(C5)C3)C4)n(/N=C/c3c(F)cccc3F)c2=S)CC1 | IFO 3007 | 200 µg/disc | <10 mm |
| CSC1=NC(c2ccc(Cl)cc2)C(C#N)=C(N)N1 | MTCC 227 | 100 µg/mL | 20 mm |
| O=[N+]([O-])c1ccc(/C=N/n2c(C34CC5CC(CC(C5)C3)C4)n[nH]c2=S)c([N+](=O)[O-])c1 | IFO 3007 | 200 µg/disc | <10 mm |
| CC1=C(Cl)C(O)=CC(=O)C12Oc1cc(O)c(Cl)c(C)c1C2=O | MTCC 227 | 50 µg/mL | 25 mm |
| Cc1cc(O)c(C(C)C)cc1Cl | MTCC | 100 µg/mL | 20 mm |

For reference, 3 entries again:

SMILES	strain	dose	value
CC1=C(Cl)C(O)=CC(=O)C12Oc1cc(O)c(Cl)c(C)c1C2=O	MTCC 227	50 µg/mL	25 mm
O=[N+]([O-])c1ccc(/C=N/n2c(C34CC5CC(CC(C5)C3)C4)n[nH]c2=S)c([N+](=O)[O-])c1	IFO 3007	200 µg/disc	<10 mm
CSC1=NC(c2ccccc2O)C(C#N)=C(N)N1	MTCC 227	50 µg/mL	19 mm

Conditions beyond the fields shown may differ between rows. Zones are inhibition diameters on agar.